Source: patent US10703765B2 (priority 2014, dated 2020)

By UniProt entry, the sequences of proteins in these tests, tags left out.
UniProt Q99720, whole entry, looked up: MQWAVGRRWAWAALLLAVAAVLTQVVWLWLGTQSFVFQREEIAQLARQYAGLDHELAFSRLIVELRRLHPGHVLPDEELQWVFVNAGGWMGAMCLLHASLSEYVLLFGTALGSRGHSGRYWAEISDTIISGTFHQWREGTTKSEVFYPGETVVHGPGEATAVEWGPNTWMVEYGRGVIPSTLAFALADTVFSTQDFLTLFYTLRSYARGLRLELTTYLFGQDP

Target: human σ1 receptor (Homo sapiens, UniProt Q99720)
Set-up: key to the marks not given beside the values
Details: combined class from Ki-σ1 (human σ1 receptor, A1) and Ki-μ (human μ-opioid receptor, A2) radioligand binding

Structure (SMILES): CC1OC2(CCN(CCn3cnc4ccccc43)CC2)CN(c2ccccc2)C1=O.Cl (stereo not shown)
- μ and σ1 dual binding: ++
